Data reported in patent US20230250157A1.

Columns and labels:
Assay in all cases: ELISA
[1] = target: SARS-CoV-2 Beta RBD (SARS-CoV-2 Beta)
[2] = target: SARS-CoV-2 Omicron BA.1 RBD (SARS-CoV-2 Omicron BA.1)
[3] = target: SARS-CoV-2 Omicron BA.2 RBD (SARS-CoV-2 Omicron BA.2)

Measured: EC50

C144 IgG
> 10 µg/mL: [1] | [2] | [3]

C102 IgG
> 10 µg/mL: [1] | [2] | [3]
